Results reported in patent US10039816B2, “Siderophore-based immunization against gram-negative bacteria” (Massachusetts Institute of Technology, priority 2014, dated 2018).

Test system: intestinal microbiota
Test: Microbiota analysis (16S rDNA, Illumina MiSeq) of colon content of immunized mice
Assay type: in vivo
Settings: before infection

Row | Substance | effect of immunization on composition of the microbiota
1 | Cholera toxin B subunit [CTB, reference compound] | did not alter the composition of the microbiota
2 | CTB-Ent | did not alter the composition of the microbiota
